Laboratory results reported in PMC7830303 (Molecules, 2021).

How the values were obtained:
[1] = Channel current measurement, droplet contact method; conditions: DOPE/DOPG (3:1 mol/mol), peptide at 100 nM, 100 mV, 200 mM KCl, 23 °C
[2] = as above; conditions: peptide at 100 nM, 100 mV, 23 °C

CC[C@H](C)[C@H](NC(=O)CN)C(=O)N[C@@H](CCCCN)C(=O)N[C@@H](CCCCN)C(=O)N[C@@H](Cc1ccccc1)C(=O)N[C@@H](CC(C)C)C(=O)N[C@@H](CCCCN)C(=O)N[C@@H](CO)C(=O)NC(C)(C)C(=O)N[C@@H](CCCCN)C(=O)N[C@@H](CCCCN)C(=O)N[C@@H](Cc1ccccc1)C(=O)N[C@H](C(=O)N[C@@H](CCCCN)C(=O)NC(C)(C)C(=O)N[C@@H](Cc1ccccc1)C(=O)N[C@@H](CCCCN)C(N)=O)C(C)C [Peptide 1, reference compound] (H-GIKKFLKS[Aib]KKFVK[Aib]FK-NH2)
Electrophysiological signal type on DOPE/DOPG bilayer [1]: membrane disruption activity

CC[C@H](C)[C@H](NC(=O)CN)C(=O)N[C@@H](CCCCN)C(=O)N[C@@H](CCCCN)C(=O)N[C@@H](Cc1ccccc1)C(=O)N[C@@H](CC(C)C)C(=O)N[C@@H](CCCCN)C(=O)N[C@]1(C)CCCCCCC=CCCC[C@@](C)(C(=O)N[C@@H](Cc2ccccc2)C(=O)N[C@@H](CCCCN)C(N)=O)NC(=O)[C@H](CCCCN)NC(=O)[C@H](C(C)C)NC(=O)[C@H](Cc2ccccc2)NC(=O)[C@H](CCCCN)NC(=O)[C@H](CCCCN)NC(=O)[C@H](C)NC1=O [Peptide 8] (H-GIKKFLK[R8]AKKFVK[S5]FK-NH2; staple 8-15)
Electrophysiological signal type on DOPC bilayer [2]: subsequent increase in current signals
Electrophysiological signal type on DOPE/DOPG bilayer [1]: successive increase of current signals

CC[C@H](C)[C@@H]1NC(=O)[C@@](C)(N)CCCC=CCCC[C@@](C)(C(=O)N[C@@H](CC(C)C)C(=O)N[C@@H](CCCCN)C(=O)N[C@@H](CO)C(=O)N[C@@H](C)C(=O)N[C@@H](CCCCN)C(=O)N[C@@H](CCCCN)C(=O)N[C@@H](Cc2ccccc2)C(=O)N[C@H](C(=O)N[C@@H](CCCCN)C(=O)N[C@@H](C)C(=O)N[C@@H](Cc2ccccc2)C(=O)N[C@@H](CCCCN)C(N)=O)C(C)C)NC(=O)[C@H](CCCCN)NC(=O)[C@H](CCCCN)NC1=O [Peptide 2] (H-[S5]IKK[S5]LKSAKKFVKAFK-NH2; staple 1-5)
Electrophysiological signal type on DOPC bilayer [2]: spike signals
Electrophysiological signal type on DOPE/DOPG bilayer [1]: successive increase of current signals

Bridge positions count the residues as written; N and C are the ends. Square brackets hold non-standard residues; d marks the D form. Peptide text beside a SMILES is read from it. R8 = C=CCCCCCC[C@@](C)(N)C(=O)O; S5 = C=CCCC[C@](C)(N)C(=O)O; Aib = CC(C)(N)C(=O)O
